In PubChem BioAssay AID624268 (The Scripps Research Institute Molecular Screening Center, 2012):
The entries are a selection whose mix differs from that of the whole data set. The source made the active and inactive calls.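 How the source made its calls: active means inhibition above a per-plate cutoff of the control wells' mean inhibition plus 3 SD (cut at about 5.5% in these data); inactive means the rest.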

What follows are compounds tested on methionyl-tRNA synthetase (Trypanosoma brucei brucei) (assay: T. brucei MetRS inhibitors, primary screen, biochemical, luminescence (AID 624268;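 further: 0% = DMSO wells median and 100% = median of wells with control inhibitor compound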)). Conditions: purified T. brucei MetRS, ATP depletion, Kinase-Glo luminescence; at 11.9 µM; stronger effect = higher value.
Method in brief: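 Material: T. brucei methionyl-tRNA synthetase, purified; reagent: substrates ATP, L-methionine and bulk Escherichia coli tRNA; dosing: 11.9 µM single point; timing: 15 min plus 2 h at 25 °C; detection: luminescence of leftover ATP; evaluation: % inhibition; control set: DMSO-only wells as low control; replicates: singlicate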
With `CCN1CCC(Nc2cccc(F)c2)CC1` the inhibition was inactive: -0.41%.
In the case of `COc1ccc(C(c2nnnn2C2CCCCC2)N2CCC(n3c(=O)[nH]c4ccccc43)CC2)cc1` (stereo not drawn), the inhibition is reported as inactive: 0.56%.
`CC(C)(C)n1nnnc1C(c1ccnc2ccccc12)N1CCC(n2c(=O)[nH]c3ccccc32)CC1` (stereo not drawn) was tested, and the inhibition was inactive: -1.21%.
`Cc1ccccc1NC1(C#N)CCN(Cc2ccccc2)CC1` was tested, and the inhibition was inactive: -0.19%.
With `CN(C)c1ccc(C(=O)NCC2(N3CCCCC3)CCCCC2)cc1` the inhibition was inactive: -0.64%.
In the case of `Cn1c(=O)[nH]cc(N(CCCl)CCCl)c1=O`, the inhibition is reported as inactive: 0.16%.
In the case of `O=C(NCC1(N2CCCCC2)CCCCC1)c1ccco1`, the inhibition is reported as inactive: 0.22%.
With `COc1cc(OC)cc(C(=O)NCC2(N3CCCCC3)CCCCC2)c1` the inhibition was inactive: -0.5%.
In the case of `O=c1[nH]c2ccccc2n1C1CCN(C(c2ccnc3ccccc23)c2nnnn2C2CCCCC2)CC1` (stereo not drawn), the inhibition is reported as inactive: -0.16%.
In the case of `CCC(c1nnnn1C1CCCCC1)N1CCC(n2c(=O)[nH]c3ccccc32)CC1` (stereo not drawn), the inhibition is reported as inactive: -0.93%.
In the case of `COc1cccc(C(c2nnnn2C2CCCCC2)N2CCC(n3c(=O)[nH]c4ccccc43)CC2)c1OC` (stereo not drawn), the inhibition is reported as inactive: 0.04%.
`CC(=O)N(c1ccccc1)C1CCNCC1` was tested, and the inhibition was inactive: -0.05%.
With `Cc1ccc(NC2(C#N)CCN(Cc3ccccc3)CC2)cc1` the inhibition was inactive: -0.14%.
With `Fc1ccccc1NC1CCN(Cc2ccccc2)CC1` the inhibition was inactive: 0.04%.
For `Cc1ccc(C(=O)NCC2(N3CCCCC3)CCCCC2)o1`, the inhibition was inactive: -0.19%.
For `CCC(CO)(C(=O)OC1CN2CCC1CC2)c1ccccc1` (stereo not drawn), the inhibition was inactive: -1.52%.
For `COc1cc(OC)cc(C(=O)NCC2(N3CCOCC3)CCCCC2)c1`, the inhibition was inactive: -0.84%.
For `COc1cccc(C(c2nnnn2C2CCCC2)N2CCC(n3c(=O)[nH]c4ccccc43)CC2)c1OC` (stereo not drawn), the inhibition was inactive: -0.34%.
With `COc1cccc(C(=O)N(c2cc(C)cc(C)c2)C2CCN(C(=O)OC(C)(C)C)CC2)c1` the inhibition was inactive: -0.56%.
In the case of `CN1CCC(Nc2ccc(Cl)cc2)CC1`, the inhibition is reported as inactive: -1.8%.
With `CN1CCC(Nc2ccc(F)c(Cl)c2)CC1` the inhibition was inactive: -0.4%.
With `CCOc1ncccc1C(=O)NCC1(N2CCOCC2)CCCCC1` the inhibition was inactive: -0.53%.
`O=c1[nH]c2ccccc2n1C1CCN(C(c2cc3ccccc3o2)c2nnnn2C2CCCC2)CC1` (stereo not drawn) was tested, and the inhibition was inactive: -0.5%.
With `CCCOc1ccc(C(=O)NCC2(N(C)C)CCCCC2)cc1` the inhibition was inactive: 0.43%.
`O=C(O)C1(Nc2ccccc2)CCN(Cc2ccccc2)CC1` was tested, and the inhibition was inactive: -0.68%.
For `NN(c1ccccc1)C1CCN(CCc2ccccc2)CC1`, the inhibition was inactive: 0.01%.
For `CC(C)(C)OC(=O)N1CCC(Nc2ccccc2)CC1`, the inhibition was inactive: -1.17%.
With `N/C(=N\O)c1c(N)no[n+]1[O-]` the inhibition was inactive: -1.14%.
With `CCOC(=O)N1CCC(Nc2ccc(C)cc2)CC1` the inhibition was inactive: -1.19%.
For `COc1cccc(C(c2nnnn2C(C)(C)C)N2CCC(n3c(=O)[nH]c4ccccc43)CC2)c1OC` (stereo not drawn), the inhibition was inactive: -0.95%.
`CCCCn1nnnc1C(c1cccc(OC)c1OC)N1CCC(n2c(=O)[nH]c3ccccc32)CC1` (stereo not drawn) was tested, and the inhibition was inactive: -0.48%.
In the case of `O=c1[nH]c2ccccc2n1C1CCN(C(c2cccs2)c2nnnn2C2CCCC2)CC1` (stereo not drawn), the inhibition is reported as inactive: 0.09%.
`O=C(OC1CN2CCC1CC2)C1c2ccccc2C=Cc2ccccc21` (stereo not drawn) was tested, and the inhibition was inactive: 0.51%.
With `O=C(NCC1(N2CCOCC2)CCCCC1)c1cc(Br)ccc1Cl` the inhibition was inactive: -0.36%.
In the case of `COc1cc(C(=O)NCC2(N3CCOCC3)CCCCC2)cc(OC)c1C`, the inhibition is reported as inactive: -0.17%.
For `CCCCn1nnnc1C(c1ccccc1)N1CCC(n2c(=O)[nH]c3ccccc32)CC1` (stereo not drawn), the inhibition was inactive: -0.38%.
With `O=c1[nH]c2ccccc2n1C1CCN(C(c2ccnc3ccccc23)c2nnnn2C2CCCC2)CC1` (stereo not drawn) the inhibition was inactive: -0.24%.
`COc1ccc(C(=O)NCC2(N3CCOCC3)CCCCC2)cc1OC` was tested, and the inhibition was inactive: -0.33%.
With `O=c1[nH]c2ccccc2n1C1CCN(C(c2cccs2)c2nnnn2C2CCCCC2)CC1` (stereo not drawn) the inhibition was inactive: -0.28%.
With `Cc1cc(N(CCCl)CCCl)ccc1C=O` the inhibition was inactive: -0.09%.
In the case of `CCCN1CCC(Nc2cc(OC)cc(OC)c2)CC1`, the inhibition is reported as inactive: -0.12%.
In the case of `O=c1[nH]c2ccccc2n1C1CCN(C(c2ccccc2)c2nnnn2C2CCCC2)CC1` (stereo not drawn), the inhibition is reported as inactive: -0.37%.
`c1ccc(CN2CCC(Nc3ccccc3)CC2)cc1` was tested, and the inhibition was inactive: -0.19%.
With `CN(C)C1(CNC(=O)c2cccc(C#N)c2)CCCCC1` the inhibition was inactive: -0.54%.
With `CC(C)(C)n1nnnc1C(c1cccc2ccccc12)N1CCC(n2c(=O)[nH]c3ccccc32)CC1` (stereo not drawn) the inhibition was inactive: -0.53%.
For `CC(C)(C)OC(=O)N1CCC(N(C(=O)c2ccccc2)c2ccc(Cl)cc2)CC1`, the inhibition was inactive: -1.26%.
In the case of `N#Cc1ccc(C(=O)NCC2(N3CCCCC3)CCCCC2)cc1`, the inhibition is reported as inactive: -0.41%.
In the case of `O=C(NCC1(N2CCCCC2)CCCCC1)c1cccc(C(F)(F)F)c1`, the inhibition is reported as inactive: 0.77%.
`CN1CCN(CCOC(=O)C(O)(c2ccccc2)c2ccccc2)CC1` was tested, and the inhibition was inactive: -0.26%.
With `CC(C)c1ccc(C(=O)NCC2(N3CCOCC3)CCCCC2)cc1` the inhibition was inactive: -0.6%.
With `COc1ccc(NC2CCN(C(=O)OC(C)(C)C)CC2)cc1` the inhibition was inactive: 0.3%.
For `CCCCn1nnnc1C(c1cccc2ccccc12)N1CCC(n2c(=O)[nH]c3ccccc32)CC1` (stereo not drawn), the inhibition was inactive: 0.07%.
In the case of `COc1cc(C(=O)NCC2(N3CCCCC3)CCCCC2)ccc1OC(F)F`, the inhibition is reported as inactive: -0.76%.
`O=C(NCC1(N2CCOCC2)CCCCC1)c1cc(=O)[nH]c2ccccc12` was tested, and the inhibition was inactive: -0.77%.
For `O=C(NCC1(N2CCCCC2)CCCCC1)c1ccc(OC(F)F)cc1`, the inhibition was inactive: 0.95%.
`CC(C)(C)n1nnnc1C(c1ccccc1OC(F)(F)F)N1CCC(n2c(=O)[nH]c3ccccc32)CC1` (stereo not drawn) was tested, and the inhibition was inactive: -1.03%.
With `O=C(NCC1(N2CCCCC2)CCCCC1)c1cccc([N+](=O)[O-])c1` the inhibition was inactive: 0.11%.
In the case of `CSc1ccc(C(=O)NCC2(N3CCOCC3)CCCCC2)cc1`, the inhibition is reported as inactive: -0.57%.
In the case of `O=c1[nH]c2ccccc2n1C1CCN(C(c2ccccc2OC(F)(F)F)c2nnnn2C2CCCC2)CC1` (stereo not drawn), the inhibition is reported as inactive: -0.58%.
In the case of `N#CC1(Nc2ccccc2)CCN(CCc2ccccc2)CC1`, the inhibition is reported as inactive: -0.1%.
In the case of `CCN1CCC(Nc2ccc(Cl)cc2)CC1`, the inhibition is reported as inactive: -0.19%.
In the case of `CN1CCC(Nc2cccc(F)c2)CC1`, the inhibition is reported as inactive: -0.85%.
With `O=C(NCC1(N2CCCCC2)CCCCC1)c1cncc(Br)c1` the inhibition was inactive: -0.44%.
In the case of `CCCOc1ccc(C(=O)NCC2(N(C)C)CCCCC2)cc1OC`, the inhibition is reported as inactive: -0.01%.
In the case of `Cc1ccc(C(=O)NCC2(N(C)C)CCCCC2)o1`, the inhibition is reported as inactive: -0.08%.
With `COc1ccc(C(c2nnnn2C2CCCC2)N2CCC(n3c(=O)[nH]c4ccccc43)CC2)cc1` (stereo not drawn) the inhibition was inactive: -0.07%.
With `CN(C)c1cccc(C(=O)NCC2(N3CCCCC3)CCCCC2)c1` the inhibition was inactive: -0.37%.
With `COc1ccc(CN(CCCl)CCCl)cc1Cl` the inhibition was inactive: -0.41%.
`CCCCn1nnnc1C(c1ccccc1OC(F)(F)F)N1CCC(n2c(=O)[nH]c3ccccc32)CC1` (stereo not drawn) was tested, and the inhibition was inactive: 0.05%.
In the case of `CC(C)c1ccc(NC2CCN(C(=O)OC(C)(C)C)CC2)cc1`, the inhibition is reported as inactive: 0.19%.
`CCCCn1nnnc1C(c1ccnc2ccccc12)N1CCC(n2c(=O)[nH]c3ccccc32)CC1` (stereo not drawn) was tested, and the inhibition was inactive: -0.72%.
With `CCC(c1nnnn1C(C)(C)C)N1CCC(n2c(=O)[nH]c3ccccc32)CC1` (stereo not drawn) the inhibition was inactive: 0.02%.
With `O=C(NCC1(N2CCOCC2)CCCCC1)c1cc(F)c(F)cc1Cl` the inhibition was inactive: -0.23%.
In the case of `COc1cc(OC)c(C(=O)NCC2(N(C)C)CCCCC2)cc1OC`, the inhibition is reported as inactive: -0.79%.
In the case of `O=C(NCC1(N2CCOCC2)CCCCC1)c1cc2ccccc2o1`, the inhibition is reported as inactive: -0.18%.
With `Cc1cc(C)cc(N(C(=O)c2ccccc2)C2CCN(C(=O)OC(C)(C)C)CC2)c1` the inhibition was inactive: -0.95%.
In the case of `O=C(NCC1(N2CCCCC2)CCCCC1)c1ccc(Cl)nc1`, the inhibition is reported as inactive: 0.35%.
`O=c1[nH]c2ccccc2n1C1CCN(C(c2ccccc2OC(F)(F)F)c2nnnn2C2CCCCC2)CC1` (stereo not drawn) was tested, and the inhibition was inactive: -0.19%.
With `CCCCn1nnnc1C(c1ccc(OC)cc1)N1CCC(n2c(=O)[nH]c3ccccc32)CC1` (stereo not drawn) the inhibition was inactive: -1.16%.
With `CCOC(=O)N1CCC(Nc2ccc(OC)cc2)CC1` the inhibition was inactive: -0.6%.
In the case of `COc1ccc(Cl)cc1C(=O)NCC1(N2CCOCC2)CCCCC1`, the inhibition is reported as inactive: -0.17%.
`O=C(NCC1(N2CCCCC2)CCCCC1)c1ccc(Cl)s1` was tested, and the inhibition was inactive: -0.15%.
In the case of `N#CC1(Nc2ccccc2)CCN(Cc2ccccc2)CC1`, the inhibition is reported as inactive: -0.01%.
With `O=C(OC1CN2CCC1CC2)C1c2ccccc2Oc2ccccc21` (stereo not drawn) the inhibition was inactive: 0.02%.
`O=c1[nH]c2ccccc2n1C1CCN(C(c2cc3ccccc3o2)c2nnnn2C2CCCCC2)CC1` (stereo not drawn) was tested, and the inhibition was inactive: 0.13%.
`O=C(NCC1(N2CCCCC2)CCCCC1)c1cccs1` was tested, and the inhibition was inactive: -0.29%.
`CCCCn1nnnc1C(CC)N1CCC(n2c(=O)[nH]c3ccccc32)CC1` (stereo not drawn) was tested, and the inhibition was inactive: -0.31%.
For `CCCCn1nnnc1C(c1cccs1)N1CCC(n2c(=O)[nH]c3ccccc32)CC1` (stereo not drawn), the inhibition was inactive: -1.18%.
With `O=C(NCC1(N2CCCCC2)CCCCC1)c1ccc(=O)[nH]c1` the inhibition was inactive: -0.15%.
With `CC(C)(C)OC(=O)N1CCC(N(C(=O)c2ccccc2)c2ccc(F)cc2)CC1` the inhibition was inactive: -0.94%.
With `COc1ccc(C(=O)NCC2(N3CCCCC3)CCCCC2)c(OC)c1OC` the inhibition was inactive: -1.01%.
`CCC(c1nnnn1C1CCCC1)N1CCC(n2c(=O)[nH]c3ccccc32)CC1` (stereo not drawn) was tested, and the inhibition was inactive: 0.61%.
For `COc1ccc(C(=O)NCC2(N3CCCCC3)CCCCC2)cc1`, the inhibition was inactive: -0.29%.
With `Cc1cccc(NC2(C#N)CCN(Cc3ccccc3)CC2)c1` the inhibition was inactive: -0.04%.
With `CSc1ccccc1C(=O)NCC1(N2CCCCC2)CCCCC1` the inhibition was inactive: -0.7%.
For `O=c1[nH]c2ccccc2n1C1CCN(C(c2ccccc2)c2nnnn2C2CCCCC2)CC1` (stereo not drawn), the inhibition was inactive: 0.14%.
With `O=c1[nH]c2ccccc2n1C1CCN(C(c2cccc3ccccc23)c2nnnn2C2CCCC2)CC1` (stereo not drawn) the inhibition was inactive: -0.27%.
With `CCOC(=O)N1CCC(Nc2cccc(C)c2)CC1` the inhibition was inactive: -0.03%.
In the case of `COc1cc(C(=O)NCC2(N(C)C)CCCCC2)ccc1OC(F)F`, the inhibition is reported as inactive: -1.64%.
`CCOc1ccc(C)cc1CN(CCCl)CCCl` was tested, and the inhibition was inactive: -0.2%.
In the case of `O=C1CCN(Cc2ccccc2)CC1`, the inhibition is reported as inactive: 1.8%.
`CC(C)(C)n1nnnc1C(c1ccccc1)N1CCC(n2c(=O)[nH]c3ccccc32)CC1` (stereo not drawn) was tested, and the inhibition was inactive: -0.12%.
With `COc1ccc(NC2CCN(CCc3ccccc3)CC2)c(OC)c1` the inhibition was inactive: -1.01%.
`CCOC(=O)N1CCC(Nc2ccc(F)cc2)CC1` was tested, and the inhibition was inactive: -0.34%.
With `CCCCn1nnnc1C(c1cc2ccccc2o1)N1CCC(n2c(=O)[nH]c3ccccc32)CC1` (stereo not drawn) the inhibition was inactive: -0.41%.
For `O=P1(N(CCCl)CCCl)SCCCS1`, the inhibition was inactive: -0.46%.
In the case of `CCCCOc1ccc(C(=O)NCC2(N3CCOCC3)CCCCC2)cc1`, the inhibition is reported as inactive: -0.58%.
With `O=C(NCC1(N2CCCCC2)CCCCC1)c1ccc(F)cc1` the inhibition was inactive: 0.39%.
